The values that follow come from paper PMC6470140 (Nature Communications, 2019).

The target in the assay is EBOV GP ΔTM (residues 1-636; strain Makona) (Zaire ebolavirus (EBOV), strain Makona, …, UniProt A0A068J419). The conditions noted are these: both partners purified.

B1: BDBV223 monoclonal antibody (wild type IgG) (antibody, V domains shown)
VH: QVQLQQWGAGLLKPSETLSLTCAVYGGSFTTTYWNWIRQPPGKGLEWIGEVNYSGNANYNPSLKGRVAISVDTSKNQFSLRLNSVTAADTAIYYCTSRIRSHIAYSWKGDVWGKGTTVTVSS
VL: EIVMTQSPGTLSLSPGERATLSCRASQSVPRNYIGWFQQKPGQAPRLLIYGASSRAAGFPDRFSGSGSGTDFTLTITRLEPEDFAMYYCHQYDRLPYTFGQGTKLEIK
Regarding B1, the binding result is reported as “binds”.
